Measured values from several laboratories, pooled; numbers as filed in NIAID ChemDB.

Common to all: growth or infection tests; organism: HIV-1; cell line: PBMC; measure: EC50

Conditions beyond the fields shown may differ between rows.

SMILES	strain	mutations	read by	value
C[S+](CC[C@H](N)C(=O)[O-])C[C@H]1O[C@@H](n2cnc3c(N)ncnc32)[C@H](O)[C@@H]1O	IIIB		p24	<100 µg/mL
CN(C)CCSc1nc(-c2cccs2)cc(-c2cccs2)n1	LAV-1		RT activity	48.9 µM
Nc1ncnc2c1ncn2[C@@H]1CC[C@H](CO)O1	LAV			>100 µM
Cc1cn([C@H]2C=C[C@@H](CO)O2)c(=O)[nH]c1=O	IIIB		p24	0.018 µM
CN1CCN(CCSc2nccc(-c3ccc(-c4ccnc(SCCN5CCN(C)CC5)n4)s3)n2)CC1	LAV-1		RT activity	17.5 µM
Cc1cn([C@H]2C=C[C@@H](COC(=O)NCCC3=CCCCC3)O2)c(=O)[nH]c1=O	IIIB		p24	50 µM
Nc1ncnc2c1ncn2OCCOCP(=O)(O)O				0.3 µM
CN(CCCN)CCCNc1nc(-c2cccs2)cc(-c2cccs2)n1	LAV-1		RT activity	67.7 µM
OCCC#Cc1nc(-c2ccc(F)cc2)c(-c2ccncc2)n1CCCc1ccccc1	89.6		p24	<1 µM
CN1CCN(CCSc2nccc(-c3ccc(-c4cccs4)s3)n2)CC1	LAV-1		RT activity	12.9 µM
Nc1nc2c(ncn2OCCOCP(=O)(O)O)c(=O)[nH]1				0.01 µM
N#CC1=CC2Nc3ccccc3C2N(c2ccc([N+](=O)[O-])cc2)C1=O	B-92US026		GFP / fluorescence	0.29 µM
COc1ccc(/C=C/c2cc(Cl)c3cc(Cl)ccc3n2)c(OC)c1	VB51		p24 / ELISA	1.11 µM
NCCNc1nc(-c2cccs2)cc(-c2cccs2)n1	LAV-1		RT activity	2.6 µM
NC(=O)CCNC(=O)c1ccccc1SCc1ccc(OP2(=O)OCc3ccccc3O2)cc1	HT/92/599		XTT	20.4 µM
CN1CCN(Cc2ccc(-c3cccc(-c4ccc(CN5CCN(C)CC5)cc4)n3)cc2)CC1	LAV		RT activity	22 µM
Nc1nccc2c1ncn2[C@@H]1O[C@H](CO)[C@@H](O)[C@H]1O	18190 unpaired		p24	0.127 µM
CN(C)CCSc1nc(-c2cccs2)cc(-c2cccn2C)n1	LAV-1		RT activity	15.9 µM
OCCN(CCO)CCOc1nc(-c2cccs2)cc(-c2cc3ccccc3s2)n1	LAV		RT activity	1.4 µM
CC(C)CCC[C@@H](C)[C@H]1CCC2C3CCC4C[C@@H](O[C@@H]5O[C@H](COS(=O)(=O)[O-])[C@@H](O[C@H]6O[C@H](COS(=O)(=O)[O-])[C@@H](O[C@H]7O[C@H](COS(=O)(=O)[O-])[C@@H](O[C@H]8O[C@H](COS(=O)(=O)[O-])[C@@H](OS(=O)(=O)[O-])[C@H](OS(=O)(=O)[O-])[C@H]8OS(=O)(=O)[O-])[C@H](OS(=O)(=O)[O-])[C@H]7OS(=O)(=O)[O-])[C@H](OS(=O)(=O)[O-])[C@H]6OS(=O)(=O)[O-])[C@H](OS(=O)(=O)[O-])[C@H]5OS(=O)(=O)[O-])CC[C@]4(C)C3CC[C@@]21C	HI05-91 isolate (R5)		p24 / ELISA / antigen	4 µg/mL
CN(C)CCSc1nccc(-c2ccc(-c3ccnc(SCCN(C)C)n3)s2)n1	LAV		RT activity	1.4 µM
CCOC(=O)[C@H](C)NP(=O)(OC[C@@H]1OC[C@H](n2cnc3c(=O)[nH]c(N)nc32)O1)Oc1ccccc1	LAI		RT activity	0.4 µM
C=CCN(C(=O)OCc1ccc([N+](=O)[O-])cc1)C1CCN(C[C@H]2CN(C(=O)C3CCCC3)C[C@]2(O)c2ccccc2)CC1	J18 R5 MDR CLADE B	PR-L10I M36I L63P A71T L60M RT-M41L E44D T69D V108I V118I L210W T215D	p24	0.00076 µM
CN[C@@H]1[C@H](O[C@@H]2OC[C@@H](O)[C@H](O)[C@H]2O)[C@@H](O)[C@H](O[C@H]2c3cc(C)c(C(=O)N[C@H](C)C(=O)O)c(O)c3-c3c(cc4c(c3O)C(=O)c3cc(OC)cc(O)c3C4=O)[C@@H]2O)O[C@@H]1C	Clade C ETH2220 (R5-tropic)		p24 / ELISA	10 µM
Clc1cc(CN2CCCNCCNCCCNCC2)cc(Cl)n1	R5 clinical isolate #19		p24	4.7 µM
CN1CCN(CCSc2nc(-c3cc4ccccc4s3)c3ccccc3n2)CC1	LAV		RT activity	6.1 µM
Cc1cn([C@H]2C=C[C@@H](COC(=O)NCCc3ccccc3Cl)O2)c(=O)[nH]c1=O	IIIB		p24	12.9 µM
OCCN(CCO)CCOc1nc(-c2cccs2)cc(-c2cc3ccccc3s2)n1	LAV-1		RT activity	1.5 µM
CO[C@H]1C[C@@H]2CC[C@@H](C)[C@@](O)(O2)C(=O)C(=O)N2CCCC[C@H]2C(=O)O[C@H]([C@H](C)C[C@@H]2CC[C@@H](O)[C@H](OC)C2)CC(=O)[C@H](C)/C=C(\C)[C@@H](O)[C@@H](OC)C(=O)[C@H](C)C[C@H](C)/C=C/C=C/C=C/1C	IIIB X4		p24	>0.001 µM
CCOC(=O)[C@H](C)NP(=O)(OC[C@@H]1OC[C@H](n2cnc3c(N)nc(N)nc32)O1)Oc1ccccc1	LAI		RT activity	0.3 µM
Cc1cn([C@H]2C=C[C@@H](COC(=O)NCCc3ccccc3)O2)c(=O)[nH]c1=O	IIIB		p24	78 µM
Cc1ccc(-c2ccc3c(c2)C=C(C(=O)Nc2ccc(C[N+](C)(C)C4CCOCC4)cc2)CCC3)cc1	CM1 CLADE C		p24	<1 µM
COC(=O)[C@H](C)NP(=O)(OC[C@@H]1C=C[C@H](n2cc(C)c(=O)[nH]c2=O)O1)Oc1ccc(Cl)cc1	IIIB WT		p24	0.001 µM
CC(C)OC(=O)[C@H](C)NP(=O)(OCC(F)(F)C(F)(F)C(F)(F)Cn1cnc2c(N)ncnc21)Oc1ccccc1	LAI		RT activity	>100 µM
Cc1cn([C@H]2C=C[C@@H](COC(=O)NCCc3ccc(Cl)cc3)O2)c(=O)[nH]c1=O	IIIB		p24	37.6 µM
Nc1nc(=O)n([C@H]2C=C[C@@H](CO)O2)cc1F	NL-XM WT		p24	<1.7 µM
O=c1ccn(CC(F)(F)C(F)(F)C(F)(F)CO)c(=O)[nH]1	LAI		RT activity	>100 µM
Cc1ccc(-c2c([C@H](OC(C)(C)C)C(=O)O)c(C)nc3ccccc23)cc1C				0.153 µM
COC(=O)[C@H](C)NP(=O)(OC[C@@H]1C=C[C@H](n2cc(C)c(=O)[nH]c2=O)O1)Oc1ccc(OC)cc1	A17	RT-Y181C	p24	0.121 µM
Nc1nc(NC2CC2)c2ncn([C@H]3C=C[C@@H](CO)C3)c2n1	XM-ABC-resistant	RT-K65R L74V M184V Y115F	p24	<87 µM
CN(CCCN)CCCNc1nc(-c2cccs2)cc(-c2cccs2)n1	LAV		RT activity	67.7 µM
Cc1cn(CC(F)(F)C(F)(F)C(F)(F)CO)c(=O)[nH]c1=O	LAI		RT activity	>100 µM
CCO[C@@H]1Cc2cc(C(F)(F)F)ccc2C1N1CCN(C2(C)CCN(C(=O)c3c(C)ncnc3C)CC2)C[C@@H]1C	92/BR/004		p24	0.001 µM
CCOC(=O)[C@H](C)NP(=O)(OCC(F)(F)C(F)(F)Cn1c(=O)cc[nH]c1=O)Oc1ccccc1	LAI		RT activity	>100 µM
Nc1nc(Cl)c2ncn(OCCOCP(=O)(O)O)c2n1				<9 µM
Cc1ccc(NC(=O)CN2CCN(Cc3nc(-c4ccc(F)cc4)no3)CC2)cc1	93BR020		RT activity	13 µM
N=C1Sc2ccccc2C2=NCCCN12	93BR021		MTS	0.6 µM
COC(=O)[C@H](C)NP(=O)(OC[C@@H]1C=C[C@H](n2cc(C)c(=O)[nH]c2=O)O1)Oc1cc(Cl)ccc1Cl	RTMDR	RT M41L L74V T215Y V106N	p24	0.022 µM
CN(CC(CCN1CCC(O)(CCCc2ccccc2)CC1)c1ccccc1)S(=O)(=O)c1ccc(-c2ccccn2)s1	YU2		p24	<6.2 µM
CN1CCN(CCSCc2ccc(-c3cccc(-c4ccc(CSCCN5CCN(C)CC5)cc4)n3)cc2)CC1	LAV		RT activity	5.9 µM
Nc1ncnc2c1ncn2[C@@H]1C=C(CO)[C@@H](O)[C@H]1O	18190 unpaired		p24	0.0251 µM
CC(=O)c1c(C)nc(-c2ccccc2)nc1NC(=O)c1ccccc1	B-92US026		GFP / fluorescence	1.9 µM
OC1(CCCc2ccccc2)CCN(C[C@H]2CN(CC3CCCCC3)C[C@@H]2c2ccccc2)CC1	YU2		p24	<0.58 µM
Nc1nc(NC2CC2)c2ncn([C@H]3CO[C@@H](CO)O3)c2n1	LAI		RT activity	1.8 µM
CC(C)OC(=O)[C@H](C)NP(=O)(OCC(F)(F)C(F)(F)C(F)(F)Cn1c(=O)cc[nH]c1=O)Oc1ccccc1	LAI		RT activity	>100 µM

The last 4 rows once more:

SMILES | strain | mutations | read by | value
CC(=O)c1c(C)nc(-c2ccccc2)nc1NC(=O)c1ccccc1 | B-92US026 |  | GFP / fluorescence | 1.9 µM
OC1(CCCc2ccccc2)CCN(C[C@H]2CN(CC3CCCCC3)C[C@@H]2c2ccccc2)CC1 | YU2 |  | p24 | <0.58 µM
Nc1nc(NC2CC2)c2ncn([C@H]3CO[C@@H](CO)O3)c2n1 | LAI |  | RT activity | 1.8 µM
CC(C)OC(=O)[C@H](C)NP(=O)(OCC(F)(F)C(F)(F)C(F)(F)Cn1c(=O)cc[nH]c1=O)Oc1ccccc1 | LAI |  | RT activity | >100 µM

ECn: concentration that inhibits the pathogen or its effect by n%. Blank or dashed fields: not listed here.